Test results from paper PMC12148588 (eBioMedicine, 2025).

Target: SARS-CoV-2 RBD of the Wuhan strain (Acro Biosystems SPD-C82E9-25) (SARS-CoV-2, Wuhan strain, UniProt P0DTC2)
Details: both partners purified

B1: MB025_A09L (antibody, V domains shown)
VH: EVQLVESGGGLVQPGGSLRLSCAASGFSVSIFYMNWVRQAPGKGLEWVSSVYSGETTYYADSVRGRFTISRDNSKSTLYLQMNSLRPEDTAVYYCARGVDYRTNRTEGGAFDIWGQGTMVTVSS
VL: QSALTQPASVSGSPGQSIPISCTGTSSDFGNYNLISWYQQHPGKAPKLMIYEGTKRPSGVSDRFSGSKSANTASLTISGLQAEDEADYYCCSYAGSSTWMFGGGTKLTVL
fold improvement of binding over the germline version MB025_A09Lgl: > 1000 fold
